Measurements published in US11485758B2, “Bi-terminal pegylated integrin-binding peptides and methods of use thereof” (The Regents of the University of California, priority 2014, dated 2022).

Assays:
[1] = tested on: non-expressing DX3puro control tumors
[2] = for Number of metabolites in urine: radio HPLC
[3] = Biodistribution in paired DX3puroβ6/DX3puro xenograft mouse model: organs, urine, blood; format: in vivo, mice
[4] = tested on: αvβ6-expressing tumor; conditions: cited from earlier work
[5] = tested on: BxPC-3 tumors (endogenous αvβ6-expression); conditions: for POS/NEG tumor ratio, in words: BxPC-3/MIA PaCa-2, 1-4 h
Description: (PBS) or 37° C. (serum), followed by analysis on radio HPLC. Data are expressed as % probe remaining intact in sample. […] Tumor models—DX3puroβ6/DX3puro: Human melanoma cell line. DX3puroβ6 has been stably transfected to express integrin αvβ6. DX3puro is negative control cell line. […] BxPC-3: Pancreatic cell line with endogenous αvβ6-expression. MIA PaCa-2: Pancreatic cell line, no αvβ6-expression.

[6] = tested on: integrin αvβ6-expressing DX3puroβ6 tumors; conditions: for POS/NEG tumor ratio, in words: DX3puroβ6/DX3puro, 1-4 h
[7] = tested on: MIA PaCa-2 tumors (no αvβ6-expression)
[8] = not given; remark: listed apart in the source
[9] = 1 h post-injection
[10] = formulated radiotracer, radio-HPLC
[11] = ~6 h
[12] = mouse serum, 1 hour, 37° C., radio RP-HPLC
[13] = 37° C., 120 min (2 h)
[14] = summary statement, model and time point not given

In the case of 18F-FBA-A20FMDV2 [compound 1], the “DX3puro (NEG) tumor uptake” value ([1]; 1 h p.i.) is reported as 0.49 % ID/g, the “DX3puro (NEG) tumor uptake” value ([1]; 4 h p.i.) is reported as 0.19 % ID/g and the “Urine metabolites, share per HPLC peak” value ([2]; peaks at 9.0, 10.4, 10.8 min, ratio varies between animals/time points) is reported as 44% and 30% and 26%. For the same substance, the “Number of metabolites in urine” value [2] was 3, the Lung uptake ([3]; 2, 4 h) was 0.4 % ID/g and the Kidney uptake ([3]; 1 h) was less than 6 % ID/g. It also gave a Lung uptake ([3]; 1 h) of 1.6 % ID/g, a Stomach uptake ([3]; 1 h) of less than 4 % ID/g and a Kidney uptake ([3]; 4 h) of less than 0.5 % ID/g. The Urine radioactivity ([3]; at 1.2 h (so in the source)) was greater than 900 % ID/g, the “Percent injected dose per gram of αvβ6-expressing tumor” value (shortened to “Percent injected dose per gram”) ([4]; 1 h post injection) was 0.66 % ID/g and the “Percent injected dose per gram” value ([4]; 2 h post injection) was 0.28 % ID/g. For the same substance, the “Percent injected dose per gram” value ([4]; 4 h post injection) was 0.06 % ID/g, the “Number of metabolites in urine” value ([4]; by one hour) was “three” and the “Unmetabolized peptide in urine, in words” value ([4]; by one hour) was “no unmetabolized peptide was detected”. For the same substance, the “BxPC-3 (POS) tumor uptake” value ([5]; 1 h p.i.) was 0.69 % ID/g, the “BxPC-3 (POS) tumor uptake” value ([5]; 4 h p.i.) was 0.12 % ID/g and the “POS/NEG tumor ratio, in words” value [5] was “Good POS/NEG ratio, increasing over time, better than Dx3puroB6/Dx3puro pair”. It also gave a Lung uptake (2, 4 h) of less than 0.1 % ID/g, a Kidney uptake (1 h) of less than 4 % ID/g and a Lung uptake (1 h) of 0.8 % ID/g. For the same substance, the Stomach uptake (1 h) was 0.5 % ID/g, the Kidney uptake (4 h) was less than 0.2 % ID/g and the Urine radioactivity (at 1.2 h (so in the source)) was greater than 300 % ID/g. The “DX3puroβ6 (POS) tumor uptake” value ([6]; 1 h p.i.) was 0.88 % ID/g, the “DX3puroβ6 (POS) tumor uptake” value ([6]; 4 h p.i.) was 0.23 % ID/g and the “POS/NEG tumor ratio, in words” value [6] was “Moderate POS/NEG ratio, going to near-parity @ 4 h”. The “MIA PaCa-2 (NEG) tumor uptake” value ([7]; 1 h p.i.) was 0.16 % ID/g and the “MIA PaCa-2 (NEG) tumor uptake” value ([7]; 4 h p.i.) was 0.01 % ID/g.

For 18F-FBA-A20FMDV2-PEG28 [compound 4], the “DX3puro (NEG) tumor uptake” value ([1]; 1 h p.i.) was 0.5 % ID/g, the “DX3puro (NEG) tumor uptake” value ([1]; 2 h p.i.) was 0.3 % ID/g and the “DX3puro (NEG) tumor uptake” value ([1]; 4 h p.i.) was 0.1 % ID/g. For the same substance, the “Number of metabolites in urine” value [2] was 3, the Urine radioactivity ([3]; at 1.2 h (so in the source)) was greater than 1000 % ID/g and the Gall bladder uptake ([3]; time point not given) was less than 10 % ID/g. The “Kidney uptake after clearing over time” value ([3]; time point not given) was roughly 2 % ID/g, the “LgInt uptake, first value of time course” value ([3]; time point not given) was roughly 9 % ID/g and the “LgInt uptake, last value of time course” value ([3]; time point not given) was 2 % ID/g. The Liver uptake ([3]; time point not given) was less than 0.5 % ID/g, the “Lung uptake, first value of time course” value ([3]; time point not given) was roughly 3 % ID/g and the “Lung uptake, last value of time course” value ([3]; time point not given) was 2 % ID/g. For the same substance, the “Stomach uptake, first value of time course” value ([3]; time point not given) was roughly 12 % ID/g, the “Stomach uptake, last value of time course” value ([3]; time point not given) was 2 % ID/g and the “POS/NEG tumor ratio, in words” value [6] was “Moderate, relatively steady POS/NEG over time”. It also gave an Initial tumor uptake [6, 14] greater than 1 % ID/g.

With 18F-FBA-PEG28-A20FMDV2 [compound 2] the “DX3puro (NEG) tumor uptake” value ([1]; 1 h p.i.) was 0.11 % ID/g, the “DX3puro (NEG) tumor uptake” value ([1]; 4 h p.i.) was 0.07 % ID/g and the “Number of metabolites in urine” value [2] was “a major metabolite”. For the same substance, the Kidney uptake ([3]; 1 h) was 25 % ID/g, the Lung uptake ([3]; 1 h) was 2.0 % ID/g and the Stomach uptake ([3]; 1 h) was 7 % ID/g. The Urine radioactivity ([3]; 1 h) was roughly 200 % ID/g, the Kidney uptake ([3]; 4 h) was 2.7 % ID/g and the Lung uptake ([3]; 4 h) was 1.4 % ID/g. For the same substance, the Stomach uptake ([3]; 4 h) was 1.8 % ID/g, the Gall bladder uptake ([3]; time point not given) was less than 3 % ID/g and the Liver uptake ([3]; time point not given) was less than 0.1 % ID/g. For the same substance, the Tumor uptake ([5]; summary statement, time point not given) was roughly 2 % ID/g, the Kidney uptake (1 h) was 19 % ID/g and the Lung uptake (1 h) was 2.1 % ID/g. The Stomach uptake (1 h) was 2.6 % ID/g, the Urine radioactivity (1 h) was roughly 400 % ID/g and the Kidney uptake (4 h) was 3.3 % ID/g. For the same substance, the Lung uptake (4 h) was 1.7 % ID/g, the Stomach uptake (4 h) was 1.9 % ID/g and the Gall bladder uptake (time point not given) was less than 4 % ID/g. For the same substance, the Liver uptake (time point not given) was less than 0.2 % ID/g and the “POS/NEG tumor ratio, in words” value [6] was “Good POS/NEG ratio, increasing for later time points, highest at 2 h”.

For “18F-FBA-PEG28-A20FMDV2-PEG28 [compound 5]”, the “Probe intact in tumor” value ([8]; 1 h, DX3puroB6 and BxPC-3 tumors) was greater than 80%, the “Stability (intact radiotracer) in BxPC-3 tumor” value ([8]; 1 h post-injection) was 81.45% and the “Intact radiotracer in DX3puroB6 tumor” value ([8]; peak at 17.4 min) was 82-84%. The “Likely metabolites in DX3puroB6 tumor” value ([8]; peaks at 17.0-17.2 min) was 14-18%, the “Stability (intact radiotracer) in kidneys” value [9] was 88.5% and the “Stability (intact radiotracer) in kidneys” value ([9]; listed as FBA-PEG28-A20FMDV2-PEG28) was roughly 90%. For the same substance, the “DX3puro (NEG) tumor uptake” value ([1]; 1 h p.i.) was 0.39 % ID/g, the “DX3puro (NEG) tumor uptake” value ([1]; 4 h p.i.) was 0.14 % ID/g and the “Fraction of probe intact in urine, in words” value ([2]; 1 h) was “Over two-thirds”. The “Intact radiotracer in urine” value ([2]; 1 h) was 69% and 67%, the “Main metabolite in urine ([…])” value ([2]; 1 h) was 31% and 29% and the “Intact radiotracer in urine” value ([2]; 2 h) was 78%. For the same substance, the “Main metabolite in urine ([…])” value ([2]; 2 h) was 16%, the “Fraction of probe intact in urine, in words” value ([2]; 4 h) was “approx. half” and the “Intact radiotracer in urine” value ([2]; 4 h) was 45%. The “Main metabolite in urine ([…])” value ([2]; 4 h) was 55%, the “Number of metabolites in urine” value [2] was “only one metabolite” and the “Decomposition in the radiotracer formulation” value [10] was “around 5%”. It also gave a Gall bladder uptake ([3]; 1 h) of 7 % ID/g, a Kidney uptake ([3]; 1 h) of 58 % ID/g and a Liver uptake ([3]; 1 h) of less than 0.5 % ID/g. It also gave a Stomach uptake ([3]; 1 h) of 11 % ID/g, a Urine radioactivity ([3]; 1 h) of 396 % ID/g and a Gall bladder uptake ([3]; 4 h) of 2.7 % ID/g. For the same substance, the Kidney uptake ([3]; 4 h) was 20 % ID/g, the Stomach uptake ([3]; 4 h) was 8 % ID/g and the Urine radioactivity ([3]; 4 h) was 135 % ID/g. The LgInt uptake ([3]; steady over time) was roughly 5 % ID/g, the Lung uptake ([3]; steady over time) was roughly 2 % ID/g and the “BxPC-3 (POS) tumor uptake” value ([5]; 1 h p.i., listed as FBA-PEG28-A20FMDV2-PEG28) was 4.7 % ID/g. For the same substance, the “BxPC-3 (POS) tumor uptake” value ([5]; 4 h p.i., listed as FBA-PEG28-A20FMDV2-PEG28) was 3.4 % ID/g, the “Gall bladder, stomach, intestines uptake (all)” value (1 h) was less than 20 % ID/g and the Kidney uptake (1 h) was 76 % ID/g. For the same substance, the Urine radioactivity (1 h) was 482 % ID/g, the “Gall bladder, stomach, intestines uptake (all)” value (4 h) was less than 10 % ID/g and the Kidney uptake (4 h) was 19.3 % ID/g. For the same substance, the Urine radioactivity (4 h) was 223 % ID/g, the Lung uptake (steady over time) was roughly 2 % ID/g and the “Liver, pancreas uptake” value (time point not given) was less than 1 % ID/g. The “POS/NEG tumor ratio, in words” value [6] was “Good POS/NEG ratio, increasing over time” and the “Intact in PBS” value [11] was greater than 92%.

With “18F-FBA-PEG28-PEG28-A20FMDV2 [compound 3]” the “DX3puro (NEG) tumor uptake” value ([1]; 1 h p.i.) was 0.11 % ID/g, the “DX3puro (NEG) tumor uptake” value ([1]; 4 h p.i.) was 0.07 % ID/g and the Kidney uptake ([3]; 1 h) was 41 % ID/g. The Lung uptake ([3]; 1 h) was 1.1 % ID/g, the Stomach uptake ([3]; 1 h) was 5.5 % ID/g and the Urine radioactivity ([3]; 1 h) was roughly 60 % ID/g. It also gave a Kidney uptake ([3]; 4 h) of 46 % ID/g, a Lung uptake ([3]; 4 h) of 1.3 % ID/g and a Stomach uptake ([3]; 4 h) of 5.5 % ID/g. For the same substance, the Gall bladder uptake ([3]; time point not given) was less than 3 % ID/g, the Liver uptake ([3]; time point not given) was less than 0.1 % ID/g and the “POS/NEG tumor ratio, in words” value [5] was “Good POS/NEG ratio, significantly increasing over time”. It also gave a Kidney uptake (1 h) of 43 % ID/g, a Lung uptake (1 h) of 1.7 % ID/g and a Stomach uptake (1 h) of 2.3 % ID/g. For the same substance, the Urine radioactivity (1 h) was roughly 1500 % ID/g, the Kidney uptake (4 h) was 42 % ID/g and the Lung uptake (4 h) was 1.3 % ID/g. The Stomach uptake (4 h) was 6.6 % ID/g, the “Kidney level (trapped, no release)” value [14] was 40 % ID/g and the Gall bladder uptake (time point not given) was less than 1.5 % ID/g. For the same substance, the Liver uptake (time point not given) was less than 0.2 % ID/g, the “POS/NEG tumor ratio, in words” value [6] was “Good POS/NEG ratio, increasing over time” and the “MIA PaCa-2 (NEG) tumor uptake” value ([7]; 1 h p.i.) was 0.22 % ID/g. The “MIA PaCa-2 (NEG) tumor uptake” value ([7]; 4 h p.i.) was 0.12 % ID/g.

For H-RSDLTPLFK([^18F]FBA)-NH2, the “Serum stability (intact peptide)” value [12] was 18.6%.

In the case of “[^18F]FBA-PEG28-A20FMDV2 K16R-PEG28 [compound 5R]”, the Intact in serum [13] is reported as 90%, the “Decomposition in the radiotracer formulation” value [10] is reported as “no partial decomposition” and the Kidney uptake ([3]; 4 h) is reported as < 8 % ID/g and 7.87 % ID/g.

In the case of [^18F]FBA-RSDLTPLF-NH2, the “Serum stability (intact peptide)” value [12] is reported as 66%.

With [^18F]FBA-RSDLTPLFK(NH2)-NH2 the “Serum stability (intact peptide)” value [12] was 95.2%.

Several values for one entry are separate records, joined by “and”; a condition that tells them apart may be missing. Identical values can stand only once. Like-named read-outs stand apart in the source and are kept apart here.
